PubChem BioAssay AID504761 – Drosophila RNAi Screening Center, 2011

- Aim: 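Genome-wide fly cell screen for genes dengue virus requires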 (primary screen)
- Cell system: D.Mel-2 cells from Drosophila
- Knock-down reagent: long dsRNA against Drosophila genes
- Conditions: infection with dengue virus type 2; dose and infection time not stated
- Measured: 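Per well on two replicate plates, imaging gave the percent of cells positive for viral envelope protein, ranked by infection, and a nuclear count of cells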
- Reading the numbers: infection score: higher = more virus-infected cells; cell count: higher = more cells in the well
- Call rule: 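Low infection ranks in the two replicates (chance level up to 0.065) followed by a retest with a 1.5-fold or larger significant decrease, p below 0.05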
- Meaning of the calls: active = confirmed: knock-down lowers infection; inactive = not picked or not confirmed
In all, the deposit lists about 22,000 reagents; shown is an unselected part of those that have a named target and a result. Over the whole deposit, 116 (0.52%) were called active. 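Calls depend on retest data that are not deposited; infection was ranked per plate without normalising between plates; the unit of the infection score is not given.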 Raw values are not corrected between plates. A plus sign joins genes that one reagent is predicted to hit. Not given: the amount of reagent, the time to read-out.

| Gene | DRSC id | infection score, replicate 1 | infection score, replicate 2 | cell count, replicate 1 | cell count, replicate 2 | outcome |
| --- | --- | --- | --- | --- | --- | --- |
| CG15073 | DRSC06506 | 4.71 | 0.87 | 5603 | 6341 | inactive |
| CG15073 | DRSC27105 | 4.89 | 22.7 | 6768 | 6596 | inactive |
| CG1792 | DRSC15290 | 8.47 | – | 6515 | 297 | inactive |
| CG1792 | DRSC28745 | 14.8 | 6.91 | 5599 | 4719 | inactive |
| geko | DRSC10044 | 3.36 | 1.29 | 6763 | 6659 | inactive |
| geko | DRSC10045 | 5.39 | 2.65 | 6253 | 6268 | inactive |
| CG5116 | DRSC15720 | 4.69 | 8.61 | 6969 | 6297 | inactive |
| strat | DRSC03069 | 12.9 | 23.6 | 5219 | 4587 | inactive |
| CG33269 | DRSC10585 | 2.76 | 8.01 | 5372 | 5627 | inactive |
| CG2701 | DRSC18590 | 2.83 | 8.05 | 6567 | 6917 | inactive |
| GEFmeso | DRSC06748 | 11.6 | 19.2 | 6742 | 6003 | inactive |
| GEFmeso | DRSC06940 | 1.94 | 0.85 | 6039 | 5776 | inactive |
| GEFmeso | DRSC21475 | 3.66 | 1.88 | 6478 | 6639 | inactive |
| CG10514 | DRSC14249 | 10.8 | 0.84 | 5762 | 6768 | inactive |
| CG10514 | DRSC28098 | 5.58 | 4.45 | 6760 | 6560 | inactive |
| CG17784 | DRSC15268 | 7.12 | 0.81 | 5615 | 6875 | inactive |
| CG32628 (retired record) | DRSC19405 | 15.1 | 14.8 | 5910 | 6014 | inactive |
| iPLA2-VIA | DRSC10699 | 10.3 | 5.94 | 6410 | 6159 | inactive |
| Atg2 | DRSC08273 | – | 15.3 | 261 | 6056 | inactive |
| Vsx2 | DRSC18088 | 2.63 | 7.25 | 6568 | 6452 | inactive |
| Vsx2 | DRSC23089 | 3.08 | 2.5 | 5944 | 6411 | inactive |
| Vsx2 | DRSC23273 | 1.14 | 10.8 | 5269 | 6366 | inactive |
| CG5532 | DRSC04509 | 2.21 | 2.97 | 6642 | 6502 | inactive |
| CG15760 | DRSC19725 | 5.27 | 8.04 | 6609 | 6582 | inactive |
| CG15760 | DRSC25944 | 2.02 | 4.35 | 6298 | 6620 | inactive |
| Cpr65Aw | DRSC08794 | 0.87 | 0.92 | 6063 | 5769 | inactive |
| Gr59f | DRSC04499 | 9.71 | 4.66 | 6127 | 6649 | inactive |
| Gr59f | DRSC27044 | 9.39 | 4.08 | 6484 | 6723 | inactive |
| CG14589 | DRSC04866 | 9.92 | 10.8 | 5956 | 6926 | inactive |
| aqrs | DRSC14724 | 5.18 | – | 6835 | 415 | inactive |
| mora | DRSC16594 | 4.01 | 3.56 | 6361 | 6689 | inactive |
| Surf6 | DRSC15588 | 2.59 | 3.42 | 6248 | 7046 | inactive |
| Surf6 | DRSC29437 | 7.06 | 9.93 | 978 | 5439 | inactive |
| CG1441 | DRSC06448 | 25.8 | 21.5 | 5138 | 5877 | inactive |
| CG1441 | DRSC27028 | 3.97 | 6.89 | 6504 | 6327 | inactive |
| CG42249 | DRSC19383 | 1.11 | 5 | 6238 | 6835 | inactive |
| CG42249 | DRSC19826 | 4.17 | 1.51 | 6614 | 6951 | inactive |
| CG42249 | DRSC28504 | 14.4 | 8.68 | 5790 | 4759 | inactive |
| CG42383 | DRSC21733 | 4.86 | 15.7 | 6343 | 3790 | inactive |
| ChLD3 | DRSC02640 | 3.24 | 7.01 | 6882 | 2653 | inactive |
| Cby | DRSC14591 | 1.47 | 3.19 | 6607 | 6246 | inactive |
| psh | DRSC19990 | 2.59 | 6.47 | 6254 | 6589 | inactive |
| psh | DRSC28534 | 3.36 | 27.5 | 745 | 6558 | inactive |
| cv | DRSC17833 | 1.21 | 1.06 | 6703 | 6974 | inactive |
| CG31908 | DRSC23243 | 2.92 | 5.14 | 7455 | 7158 | inactive |
| CG12934 | DRSC06247 | 6.56 | 8.21 | 6505 | 6616 | inactive |
| CG12934 | DRSC23570 | 1.69 | 2.58 | 6230 | 6321 | inactive |
| CG10710 | DRSC09784 | 1.79 | 1.07 | 6247 | 6465 | inactive |
| Cyp12a4 | DRSC16620 | 0.46 | 0.76 | 6527 | 6591 | inactive |
| Cyp12a4 | DRSC24072 | 5.52 | 1.13 | 6068 | 6023 | inactive |
| Cdk9 | DRSC04601 | 13.7 | 18.2 | 6149 | 6267 | inactive |
| hzg | DRSC23382 | 7.84 | 1.53 | 6352 | 6282 | inactive |
| Pfdn2 | DRSC10618 | 3.67 | 2.01 | 5992 | 6109 | inactive |
| mthl3 + mthl4 | DRSC25990 | 5.34 | 4.45 | 6520 | 6557 | inactive |
| CG31715 | DRSC21607 | 7.2 | 7.48 | 6233 | 2793 | inactive |
| RhoBTB | DRSC11877 | – | 22.6 | 439 | 6150 | inactive |
| CG15431 | DRSC00446 | 6.74 | 2.37 | 6678 | 6870 | inactive |
| CG15431 | DRSC29532 | 13.2 | 3.7 | 5218 | 784 | inactive |
